Source: the supplement of paper PMC6461962

Legend:
[1] = system: Rhodanobacter sp. FW104-10B01
Method in brief: (§1)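 Growth was read as OD600 at 24 h, or at 48 h for R2A strain comparisons, after washed cells at a final OD600 of 0.02 (80 µL) were added to 384-well plates holding serially diluted inorganic ion salts or equimolar nitrilotriacetic acid complexes. Aerobic plates were shaken at 700 rpm at 30 °C, but anaerobic plates were not. IC50 was calculated with the drc R package from at least two biological replicate curves, scaled between water and growth-blocking antibiotic controls and excluding wells with precipitate.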

[2] = system: Pseudomonas fluorescens FW300-N2E2
Method in brief: as §1

O=P([O-])([O-])F.[Na+].[Na+] [Sodium Fluorophosphate]
Conditions	IC50 growth inhibition [mM]
[1], medium / electron acceptor: 10B01 R2A/aerobic	354
[1], medium / electron acceptor: 10B01 R2A/nitrate	85.2
[2], medium / electron acceptor: N2E2 Glucose/aerobic	< 0.244
[2], medium / electron acceptor: N2E2 Glucose/aerobic 0.25xMinerals	< 0.244
[2], medium / electron acceptor: N2E2 Glucose/aerobic (2)	< 0.244
[2], medium / electron acceptor: N2E2 KB/aerobic	30.1
[2], medium / electron acceptor: N2E2 LB/aerobic	353
[2], medium / electron acceptor: N2E2 LB/aerobic (2)	354
[2], medium / electron acceptor: N2E2 LB/nitrate	81.5
[2], medium / electron acceptor: N2E2 Lactate/aerobic	1.58
[2], medium / electron acceptor: N2E2 R2A/aerobic	32.2
